The structures given here were assigned with low confidence; some may be wrong.
Key:
β-lactamase TEM-1 [1] = target: T1, β-lactamase TEM-1 (Escherichia coli, UniProt P62593); assay: UV absorption and fluorescence spectral analysis of enzymatic hydrolysis; settings: TEM-1 100 nM; for UV absorption spectra following enzymatic hydrolysis (photosensitizers) / UV absorption spectra following enzymatic hydrolysis (probes): PBS pH 7.4, 37°C, 15 minutes; for fluorescence after enzymatic hydrolysis (photosensitizers) / fluorescence after enzymatic hydrolysis (probes): excitation 680 nm
Protocol: Experimental conditions: The probes BIN-3 and BIN-2 were prepared as 5 µM working solutions in PBS (pH = 7.4). The final concentration of β-lactamase TEM-1 was 100 nM, and the final concentration of nucleophile β-mercaptoethanol was 10 mM. The total reaction volume was 100 µL, and the reaction mixture was incubated at 37°C for 15 minutes. The photosensitizers BIN-3I and BIN-2I were prepared as 10 µM working solutions in PBS (pH = 7.4). The final concentration of β-lactamase TEM-1 was 100 nM, and the final concentration of nucleophile β-mercaptoethanol was 100 µM. The total reaction volume was 100 µL, and the reaction mixture was incubated at 37°C for 15 minutes. Subsequently, all UV absorption spectra were measured at room temperature using a Shimadzu UV-Vis spectrophotometer over a wavelength range of 400 to 800 nm. All fluorescence spectra were measured using a fluorescence spectrometer with an excitation wavelength of 680 nm and an emission scanning range of 690 to 850 nm.

By UniProt entry, the sequences of proteins in these tests, tags left out. Residues count along the entry.
UniProt P62593, 24-286 limits assumed: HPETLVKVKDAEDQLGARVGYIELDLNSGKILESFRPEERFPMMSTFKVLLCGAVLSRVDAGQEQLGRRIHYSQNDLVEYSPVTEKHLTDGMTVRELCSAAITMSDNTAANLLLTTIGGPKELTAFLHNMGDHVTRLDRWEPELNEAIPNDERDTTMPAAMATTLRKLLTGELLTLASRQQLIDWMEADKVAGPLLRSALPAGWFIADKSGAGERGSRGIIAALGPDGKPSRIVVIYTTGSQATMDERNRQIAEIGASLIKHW

β-lactamase TEM-1 [2] = target: T1, β-lactamase TEM-1; assay: HPLC analysis of enzymatic hydrolysis; settings: TEM-1 100 nM, 37°C, 15 minutes, 660 nm
Protocol: Experimental conditions: The probes were prepared as 5 µM working solutions in PBS (pH = 7.4), while the photosensitizers were prepared as 10 µM working solutions in PBS (pH = 7.4). The final concentration of β-lactamase TEM-1 was 100 nM, and the final concentration of nucleophile β-mercaptoethanol was 10 mM. The total reaction volume was 100 µL, and the reaction mixture was incubated at 37°C for 15 minutes. Hydrolysis was monitored by HPLC at a detection wavelength of 660 nm.

β-lactamase TEM-1 [3] = target: T1, β-lactamase TEM-1; assay: SDS-PAGE and dual-color near-infrared fluorescence scanning (protein labeling); settings: 10 µM, TEM-1 5 µM, 37°C, 2 hours
Protocol: Experimental conditions: A 12% SDS-PAGE resolving gel and a 5% stacking gel were prepared. The probes and photosensitizers were prepared as 10 µM working solutions in PBS (pH = 7.4) and incubated with different proteins at 37°C for 2 hours. The concentrations of β-lactamase TEM-1 and BSA were 5 µM and 10 µM, respectively. For the inhibitor group, the inhibitor avibactam (1 mM) was pre-incubated with TEM-1 for 30 minutes before co-incubation with the probe. Subsequently, SDS-PAGE loading buffer was added to the samples and mixed thoroughly. Each sample (15 µL) was loaded onto the gel and subjected to electrophoresis. Upon completion, fluorescent bands were obtained using dual-color near-infrared fluorescence scanning. Finally, the gel was stained with Coomassie Brilliant Blue and photographed using a gel imaging system.

β-lactamase TEM-1 [4] = target: T1, β-lactamase TEM-1; assay: Enzyme selectivity assay (fluorescence intensity); settings: 5 µM; for fluorescence response to β-lactamase TEM-1: 37°C, 30 minutes, 680/720 nm; for fluorescence response to other enzymes and proteins: lysozyme, β-glucosidase, lipase, bovine serum albumin, glutathione, lysine, cysteine, tryptophan
Protocol: Experimental conditions: The probes were prepared as 5 µM working solutions in PBS (pH = 7.4), followed by addition of various enzymes and proteins. The total reaction volume was 100 µL, and the reaction mixture was incubated at 37°C for 30 minutes. Subsequently, the fluorescence intensity of all groups was measured using a microplate reader, with excitation and emission wavelengths set at 680 nm and 720 nm, respectively.

[5] = system: Bacteria producing or not producing β-lactamase; assay: Fluorescence imaging of bacteria with and without washing
Protocol: Experimental conditions: The bacterial experiment was conducted in a biosafety cabinet. Bacteria producing or not producing β-lactamase were first revived on LB agar plates. A single colony was then inoculated into 1 mL of culture medium and incubated at 37°C with shaking for 3 to 5 hours until reaching the logarithmic growth phase. The bacteria were collected into a sterile EP tube, centrifuged at 5,000 rpm, washed twice with PBS, and resuspended in PBS. A bacterial suspension at a concentration of 1 × 10^7 CFU was incubated with the primary probe BIN-3 and the control probe BIN-2 at 37°C for 2 hours. An additional "probe-washing" group was included. After incubation, the bacterial suspension was washed twice with PBS. Subsequently, the bacteria were spotted onto a glass slide and imaged under a fluorescence microscope using the Cy5.5 channel, with the Cy5.5 fluorescence signal pseudo-colored red.

[6] = system: mixed bacteria populations expressing β-lactamase and mCherry fluorescent protein; assay: Selective imaging of mixed bacterial populations; settings: 37°C, 2 hours; mCherry and Cy5.5 channels
Protocol: For selective imaging experiments involving mixed bacteria populations expressing β-lactamase and mCherry fluorescent protein, the procedures for bacterial culture were identical to those described above, except that prior to imaging, the two bacterial populations were mixed thoroughly and incubated with the probe at 37°C for 2 hours. Subsequently, the bacteria were spotted onto a glass slide and imaged under a fluorescence microscope using both the mCherry and Cy5.5 channels, with the mCherry fluorescence signal pseudo-colored green and the Cy5.5 fluorescence signal pseudo-colored red.

[7] = system: Enterobacter cloacae producing β-lactamase; assay: Evaluation of probe enrichment in bacteria
Protocol: Experimental conditions: The bacterial experiment was conducted in a biosafety cabinet. Enterobacter cloacae producing β-lactamase was first revived on LB agar plates. A single colony was then inoculated into 1 mL of culture medium and incubated at 37°C with shaking. The bacteria were collected into a sterile EP tube, centrifuged at 5,000 rpm, washed twice with PBS, and resuspended in PBS. A bacterial suspension at a concentration of 1 × 10^9 CFU was incubated with the primary probe BIN-3 and the control probe BIN-2 at 37°C for 2 hours. Subsequently, the culture medium was collected to measure the fluorescence intensity. The bacteria were resuspended in lysis buffer, and the fluorescence intensity of the bacterial lysate was measured to calculate the probe concentration in the bacteria.

E. coli expressing bla = assay: Real-time in vivo imaging of bacterial infection; settings: for Relative fluorescence intensity at different time points: mice, 5 × 10^8 CFU right hind limb, probe 1 µmol/kg tail vein
Protocol: Experimental conditions: In vivo imaging experiments were conducted by injecting the probes into murine infection models followed by real-time fluorescence imaging using an IVIS system. Female BALB/c mice aged 4 to 6 weeks were obtained from the Shanghai Laboratory Animal Research Center. The mice were housed at 25°C with free access to food and water. For real-time in vivo imaging, the mice were divided into groups with five mice per group: the primary probe BIN-3, BIN-3 combined with an inhibitor, and the control probe BIN-2. The probe concentration was 1 µmol/kg, and the concentration of the inhibitor avibactam was 100 mM. E. coli expressing bla (5 × 10^8 CFU) was injected into the right hind limb of the mice to establish a mouse infection model. One hour after bacterial infection, BIN-3 or BIN-2 (1 µmol/kg) was administered via tail vein injection. For the inhibitor group, avibactam (100 mM) was incubated with the bacteria at 37°C for 2 hours and injected into the right hind limb of the mice, followed by tail vein injection of BIN-3. Whole-body fluorescence images were acquired at 1, 2, 3, 4, 6, 8, and 10 hours post-injection using an IVIS Lumina XRMS Series III imaging system. Fluorescence intensity was quantified using region of interest (ROI) analysis in Living Image software.

SMILES: C[N+]1=C(/C=C/C2=C3Oc4cc(OCC5=C(C(=O)O)N6C(=O)[C@@H](NC(=O)CCc7cn(C(CC(=O)O)C(=O)O)nn7)[C@H]6SC5)c(COC(=O)NCc5cn(C(CC(=O)O)C(=O)O)nn5)cc4C=C3CCC2)C(C)(C)c2cc(I)ccc21 (some centres unmarked)
- UV absorption spectra following enzymatic hydrolysis (photosensitizers) (β-lactamase TEM-1 [1]; 10 µM): changes in the absorption spectra following enzymatic hydrolysis
- fluorescence after enzymatic hydrolysis (photosensitizers) (β-lactamase TEM-1 [1]; 10 µM): fluorescence was activated after enzymatic hydrolysis
- fluorescence after enzymatic hydrolysis followed by nucleophile attack (photosensitizer) (β-lactamase TEM-1 [1]; 10 µM, β-mercaptoethanol 100 µM): further enhanced after enzymatic hydrolysis followed by nucleophile attack
- hydrolysis by TEM-1 monitored by HPLC (photosensitizers) (β-lactamase TEM-1 [2]; 10 µM): a series of irregular HPLC peaks
- fluorescent bands after incubation with TEM-1 (β-lactamase TEM-1 [3]): red fluorescent bands were observed

SMILES: C[N+]1=C(/C=C/C2=C3Oc4cc(OCC5=C(C(=O)O)N6C(=O)[C@@H](NC(=O)CCc7cn(C(CC(=O)O)C(=O)O)nn7)[C@H]6SC5)ccc4C=C3CCC2)C(C)(C)c2cc(I)ccc21 (some centres unmarked)
- UV absorption spectra following enzymatic hydrolysis (photosensitizers) (β-lactamase TEM-1 [1]; 10 µM): changes in the absorption spectra following enzymatic hydrolysis
- fluorescence after enzymatic hydrolysis (photosensitizers) (β-lactamase TEM-1 [1]; 10 µM): fluorescence was activated after enzymatic hydrolysis
- fluorescent bands after incubation with TEM-1 (β-lactamase TEM-1 [3]): no fluorescence signals were observed

SMILES: CCC[N+]1=C(/C=C/C2=C3Oc4cc(OCC5=C(C(=O)O)N6C(=O)[C@@H](NC(=O)CCc7cn(CC[N+](C)(C)CCCS(=O)(=O)O)nn7)[C@H]6SC5)c(COC(=O)NCC)cc4C=C3CCC2)C(C)(C)c2ccccc21
- UV absorption spectra following enzymatic hydrolysis (probes) (β-lactamase TEM-1 [1]; 5 µM): a red-shift in the absorption spectra following enzymatic hydrolysis
- fluorescence after enzymatic hydrolysis (probes) (β-lactamase TEM-1 [1]; 5 µM): fluorescence was activated after enzymatic hydrolysis
- fluorescence after enzymatic hydrolysis followed by nucleophile attack (probe) (β-lactamase TEM-1 [1]; 5 µM, β-mercaptoethanol 10 mM): further enhanced after enzymatic hydrolysis followed by nucleophile attack
- fluorescence response to β-lactamase TEM-1 (β-lactamase TEM-1 [4]): specifically responded to β-lactamase TEM-1
- fluorescence response to other enzymes and proteins (β-lactamase TEM-1 [4]): no response to other enzymes and proteins

SMILES: CCC[N+]1=C(/C=C/C2=C3Oc4cc(OCC5=C(C(=O)O)N6C(=O)[C@@H](NC(=O)CCc7cn(CC[N+](C)(C)CCCS(=O)(=O)O)nn7)[C@H]6SC5)ccc4C=C3CCC2)C(C)(C)c2ccccc21
- UV absorption spectra following enzymatic hydrolysis (probes) (β-lactamase TEM-1 [1]; 5 µM): a red-shift in the absorption spectra following enzymatic hydrolysis
- fluorescence after enzymatic hydrolysis (probes) (β-lactamase TEM-1 [1]; 5 µM): fluorescence was activated after enzymatic hydrolysis
- hydrolysis by TEM-1 monitored by HPLC (probes) (β-lactamase TEM-1 [2]; 5 µM): can also be hydrolyzed by β-lactamase TEM-1
- fluorescence response to β-lactamase TEM-1 (β-lactamase TEM-1 [4]): specifically responded to β-lactamase TEM-1
- fluorescence response to other enzymes and proteins (β-lactamase TEM-1 [4]): no response to other enzymes and proteins
- fluorescent bands after incubation with TEM-1 (β-lactamase TEM-1 [3]): no fluorescence signals were observed
- fluorescence on bacteria after normal incubation ([5]; 1 × 10^7 CFU, 37°C, 2 hours): red fluorescence was observed on the bacteria
- fluorescence on bacteria after washing with PBS ([5]; washed twice with PBS): almost no fluorescence
- labeling in mixed-bacteria imaging [6]: generated fluorescence signals not only on the drug-resistant bacteria but also on the mCherry-expressing bacteria
- visible coloration of bacteria after incubation and PBS washing [7]: no visible coloration
- concentration in the bacteria, fold lower than that of BIN-3 ([7]; 1 × 10^9 CFU, 37°C, 2 hours): 150 fold
- Relative fluorescence intensity at different time points (E. coli expressing bla; 0 (h)): 0 × 10^8
- Relative fluorescence intensity at different time points (E. coli expressing bla; 1 (h)): 5.97 ± 0.41 × 10^8
- Relative fluorescence intensity at different time points (E. coli expressing bla; 2 (h)): 3.99 ± 0.18 × 10^8
- Relative fluorescence intensity at different time points (E. coli expressing bla; 3 (h)): 2.88 ± 0.34 × 10^8
- Relative fluorescence intensity at different time points (E. coli expressing bla; 4 (h)): 2.33 ± 0.48 × 10^8
- Relative fluorescence intensity at different time points (E. coli expressing bla; 5 (h)): 1.66 ± 0.44 × 10^8
- Relative fluorescence intensity at different time points (E. coli expressing bla; 6 (h)): 1.1 ± 0.28 × 10^8
- Relative fluorescence intensity at different time points (E. coli expressing bla; 7 (h)): 1.12 ± 0.28 × 10^8
- Relative fluorescence intensity at different time points (E. coli expressing bla; 8 (h)): 1.05 ± 0.2 × 10^8
- Relative fluorescence intensity at different time points (E. coli expressing bla; 9 (h)): 1 ± 0.54 × 10^8
- Relative fluorescence intensity at different time points (E. coli expressing bla; 10 (h)): 1 ± 0.19 × 10^8
- signal-to-background ratio (SBR) (E. coli expressing bla; 5 hours post-injection): approximately 1
- coloration at the infection site after skin removal (E. coli expressing bla; 10 hours after probe injection): no such blue-green coloration was observed
- fluorescence intensity of infected right hind limb in isolated organs (E. coli expressing bla; ex vivo, 10 hours after probe injection): significantly weaker signals than the BIN-3 group
